Measured data: PubChem BioAssay AID1259414 (Drosophila RNAi Screening Center, 2018)

Aim: 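Host factors increasing or decreasing Wolbachia levels in cultured fly cells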 (primary screen)
System: Drosophila JW18 cells infected with Wolbachia
Reagents: long dsRNA against Drosophila genes, 0.25 µg dsRNA per well of a 384-well plate
Time to read-out: 5 days
Conditions: cells persistently infected with Wolbachia before knock-down; no added drug
Measured: 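Automated imaging of bacterial rRNA staining divided by host cell count, reported as plate-normalised robust z-score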
Scale: Wolbachia per cell robust z: higher = more Wolbachia per host cell than the plate typical
Rule for the call: 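Hit when robust z is 1.5 or more, or -1.5 or less, in at least two of three replicates; excludes dsRNAs with several or no targets, genes not expressed in JW18 and well A1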
In all, the deposit lists about 24,000 reagents; this is a random part of those that have a named target and a result. Over the whole deposit, about 1,210 (5%) are marked active. 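Inactive calls also include excluded dsRNAs with several or no targets, genes unexpressed in JW18, and well A1, regardless of score.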 Unmarked entries are inactive. Names joined by + are all predicted targets of the reagent. No sequences are given here.

| gene knocked down | amplicon | Wolbachia per cell robust z, rep 1 | Wolbachia per cell robust z, rep 2 | Wolbachia per cell robust z, rep 3 |
| --- | --- | --- | --- | --- |
| Or63a | DRSC08681 | 0.185 | 0.938 | 1.31 |
| Polr2D + Ada2a | DRSC40781 | 0.37 | 1.19 | 1.27 |
| CG15035 | DRSC17967 | -0.568 | -4.18 | -2.05 |
| CG15035 | DRSC41385 | -3.1 | -1.78 | -1.18 |
| CycJ | DRSC08653 | -0.292 | -0.191 | 0.423 |
| CycJ | DRSC29329 | -3.16 | -0.262 | -0.184 |
| POSH | DRSC07499 | 0.603 | 0.83 | -1.25 |
| ACOX1 | DRSC05941 | 1.34 | 0.196 | 0.0063 |
| ACOX1 | DRSC24604 | 0.00556 | -0.18 | 2.02 |
| CG15517 | DRSC15056 | 0.261 | 0.246 | -1.8 |
| lqf | DRSC11363 | -0.781 | 0.143 | -0.0623 |
| lqf | DRSC27882 | -6.85 | 1.33 | 0.293 |
| CG33998 | DRSC05747 | 1.19 | -4.1 | 0.767 |

Not a retest: an excerpt of the list.
| gene knocked down | amplicon | Wolbachia per cell robust z, rep 1 | Wolbachia per cell robust z, rep 2 | Wolbachia per cell robust z, rep 3 |
| --- | --- | --- | --- | --- |
| CycJ | DRSC29329 | -3.16 | -0.262 | -0.184 |
| POSH | DRSC07499 | 0.603 | 0.83 | -1.25 |
| ACOX1 | DRSC05941 | 1.34 | 0.196 | 0.0063 |

Continued:
| gene knocked down | amplicon | Wolbachia per cell robust z, rep 1 | Wolbachia per cell robust z, rep 2 | Wolbachia per cell robust z, rep 3 |
| --- | --- | --- | --- | --- |
| spirit | DRSC18202 | 0.21 | 0.28 | -5.1 |
| spirit | DRSC25748 | 0.0826 | -1.02 | 0.549 |
| TSG101 | DRSC11098 | -0.277 | 0.647 | -0.413 |
| ago | DRSC08463 | 0.135 | 0.444 | 1.16 |
| CG31406 | DRSC12777 | 1.03 | 0.569 | 0.394 |
| CG31406 | DRSC26169 | -0.323 | -0.466 | -0.814 |
| mud | DRSC19019 | -4.16 | -0.425 | -0.864 |
| GramD1B | DRSC00426 | 0.772 | 1.01 | -0.0854 |
| GramD1B | DRSC00591 | 0.434 | -0.465 | -0.567 |
| GramD1B | DRSC23885 | -0.695 | -0.709 | -1.23 |
| GramD1B | DRSC28705 | -0.861 | -1.45 | 0.459 |
| CG8353 | DRSC03084 | 0.331 | 0.373 | -0.317 |
| CG8353 | DRSC27248 | -0.878 | -0.667 | 0.669 |
| GluClalpha | DRSC16680 | -3.14 | -1.3 | -4.81 |
| msd1 | DRSC08383 | -0.741 | -1.5 | -0.605 |
